Compound potency records, mixed from different reports. Data source: NIAID ChemDB in PubChem.

Shared fields: growth or infection tests; species: Mycobacterium tuberculosis

Inhibition is in % at the dose shown (toxicity tests: loss of growth or viability).

smiles	dose	changes	method	strain	read-out	value
COc1ccc(OC/C(N)=N\NC(=O)c2ccncc2)cc1				INH-r	MIC	25 µg/mL
CCOc1ccc(NC(=O)C(=O)CC(=O)c2c[n+](=O)c3cc(C)c(C)cc3n2[O-])cc1			BACTEC	H37Rv	MIC	≥12.5 µg/mL
NC(=O)c1cnccn1				M4809/NIACIN+	MIC	>2048 µg/mL
C=C1C[C@@]23CC[C@@H]4[C@@](C)(COC(C)=O)CCC[C@@]4(C)[C@@H]2[C@H](O)C[C@@H]1C3			resazurin / absorbance	H37Rv	MIC	>50 µg/mL
Cc1cc(O)c2c(c1)C(=O)C(c1c(C)cc3c(c1O)C(=O)C=CC3=O)=CC2=O			broth dilution	H37Ra ATCC 25177	MBC	32 µg/mL
C=C1C(=O)[C@@]23[C@H](O)C[C@@H]4C(C)(C)CC[C@@H](OC(C)=O)[C@@]4(C)[C@@H]2CC[C@@H]1[C@H]3OC(C)=O			resazurin / absorbance	H37Rv	MIC	12.5–25 µg/mL
O=[N+]([O-])c1cccc2c(C3CCCCC3)cc(C3CCCCC3)nc12	6.25 µg/mL			H37Rv	inhibition	99%
O=C1CCCCC(=O)NCCCCCCN1			resazurin	H37Rv	MIC bound	>6.25 µg/mL
Cc1ccn2c(C(=O)NCc3ccc(N4CCOCC4)c(F)c3)c(C)nc2c1			resazurin	H37Rv	MIC90	<2 µM
c1cc2c(cc1C1OCC3C(c4ccc5c(c4)OCO5)OCC13)OCO2	12.5 µg/mL		BACTEC	H37Rv	inhibition	0%
Cc1ccn2c(C(=O)NCc3ccc(N4CCC(N)CC4)c(F)c3)c(C)nc2c1			resazurin	H37Rv	MIC90	<2 µM
CCc1cccc(CC)c1NC1=CC(=O)C(=O)c2ccccc21	6.25 µg/mL		resazurin	H37Rv	inhibition	62%
CCc1c2c(nc3ccc(OCc4cccc(F)c4)cc13)-c1cc3c(c(=O)n1C2)COC(=O)C3(O)CC		Extensively drug-resistant	resazurin	XDR	MIC	49.94 µM
COc1cc2oc(-c3ccc(O)cc3)c(OC3OC(C)C(O)C(O)C3O)c(=O)c2c(O)c1OC	12.8 µg/mL		BACTEC	H37Rv	inhibition	0%
Ic1cn[nH]c1			resazurin	H37Rv	MIC90	>250 µg/mL
N/C(COc1ccc(Cl)cc1)=N/NC(=O)c1ccncc1				H37Rv(ATCC25584)	MIC	6.25 µg/mL
C=C1C[C@]23C(=O)C[C@@H]4[C@H](CCCC4(C)C)[C@H]2CC[C@H]1[C@@H]3O			resazurin / absorbance	H37Rv	MIC	>50 µg/mL
c1ccc(Nc2nnc3nc(-c4ccccc4)c(-c4ccccc4)nn23)cc1			BACTEC	H37Rv	MIC bound	>12.5 µg/mL
C=C1C[C@@H](OC(=O)CSCCN(CC)CC)C2CCC[C@]3(CCC(=O)C23)C[C@@H]1O			resazurin	mc(^2)7000	MIC	50–100 µg/mL
C[C@@H]1C[C@]23CCC4[C@]5(C)CCC[C@]4(C)C(=O)OC(=O)[C@]4(C)CCC[C@@]6(C)C7C[C@H](OC(=O)CCCCCCCCC(=O)O[C@]1(CCC25)C3)[C@@H]1C[C@@]7(CCC64)C[C@@H]1C			BACTEC	H37Rv	MIC	5 µg/mL
CCc1c2c(nc3ccc(OCc4ccccc4Cl)cc13)-c1cc3c(c(=O)n1C2)COC(=O)C3(O)CC			resazurin	H37Rv	MIC	48.36 µM
C=C1C(=O)[C@]23C[C@H]1CC[C@H]2[C@]1(C)CCC[C@](C)(COC(C)=O)[C@H]1C[C@H]3O			resazurin / absorbance	H37Rv	MIC	12.5–25 µg/mL
O=[N+]([O-])c1ccc(-c2cn3nc(-c4ccccc4)c(-c4ccccc4)nc3n2)cc1			BACTEC	H37Rv	MIC bound	>12.5 µg/mL
N/C(COc1cccc(Cl)c1)=N/NC(=O)c1ccncc1				INH-r	MIC	50 µg/mL
O=C(NC[C@H]1CN(c2ccc(N3CC4(C3)CS(=O)C4)c(F)c2)C(=O)O1)C1CCC1			broth dilution / fluorescence	H37Rv	MIC	1.8 µg/mL
C=C[C@]1(C)C[C@@H](OC(=O)CO)[C@]2(C)C(C)CC[C@]3(CCC(=O)C32)[C@@H](C)[C@@H]1O			resazurin	mc(^2)7000	MIC	25–50 µg/mL
CCc1c2c(nc3ccc(OCc4ccccc4)cc13)-c1cc3c(c(=O)n1C2)COC(=O)C3(O)CC		Extensively drug-resistant	resazurin	XDR	MIC	25.9 µM
O=C1c2c(O)ccc(O)c2C(=O)c2c(NCCNCCO)ccc(NCCNCCO)c21	6.25 µg/mL		resazurin	H37Rv	inhibition	17%
Cc1ccn2c(C(=O)OCc3ccccc3)c(C)nc2c1		Resistant to HREKP	broth dilution	MDR-TB	MIC90	<0.01 µg/mL
CCc1nc2ccccc2n1CCCCOc1ccc(C)c(C)c1		Rv1339 V90M	turbidity / fluorescence	H37Rv	MIC90	2.3 µM
Cn1c(=O)c(C(=O)NC23CC4CC(CC(C4)C2)C3)c(O)c2ccccc21			resazurin	H37Rv	MIC bound	>6.25 µg/mL
[Cl][Pd][Cl].c1ccc(P(c2ccccc2)c2ccccc2)cc1.c1cn[nH]c1			resazurin	H37Rv	MIC90	11.95 µM
O=[N+]([O-])c1cccc2ccc(C3CCCCC3)nc12	6.25 µg/mL			H37Rv	inhibition	99%
CCc1c2c(nc3ccc(OCc4ccc(F)c(F)c4F)cc13)-c1cc3c(c(=O)n1C2)COC(=O)C3(O)CC		Extensively drug-resistant	resazurin	XDR	MIC	23.31 µM
CN=C(N)c1ccc(N=C(N)c2ccc(C(N)=Nc3ccc(C(N)=NC)cc3)cc2)cc1.Cl.Cl.Cl.Cl	12.5 µg/mL		BACTEC	H37Rv	inhibition	34%
O=C(N/N=C(\COc1cccc(Cl)c1)N=Cc1ccncc1)c1ccncc1				H37Rv(ATCC25584)	MIC	50 µg/mL
Cc1ccn2c(C(=O)NCc3ccc4c(c3)CCO4)c(C)nc2c1			resazurin	H37Rv	MIC90	<2 µM
C=C(NC[C@H]1CN(c2ccc(N3C4CCC3CSC4)c(F)c2)C(=O)O1)C1CC1			broth dilution / fluorescence	H37Rv	MIC	1 µg/mL
CCc1c2c(nc3ccc(OCc4ccccc4C(F)(F)F)cc13)-c1cc3c(c(=O)n1C2)COC(=O)C3(O)CC			resazurin	H37Rv	MIC	11.32 µM
Nc1cccc2c(C3CCCCC3)cc(C3CCCCC3)nc12				H37Rv	MIC	>6.25 µg/mL
O=C(N/N=C(\COc1ccc(Cl)cc1)N=Cc1cccnc1)c1ccncc1				INH-r	MIC	50 µg/mL
CCCC[N+](CCCC)=c1ccc2nc3c(C)cc(N(CC)CC)cc3sc-2c1	12.5 µg/mL		BACTEC	H37Rv	inhibition	100%
C=C1C(=O)[C@]23C[C@H]1C[C@H](OC(C)=O)[C@H]2[C@]1(C)CCCC(C)(C)[C@H]1C[C@H]3O			resazurin / absorbance	H37Rv	MIC	25–50 µg/mL
N#Cc1c(-c2ccc(F)cc2)c([N+](=O)[O-])c2c3ccccc3ccn12			agar	H37Rv	MIC	2.3 µM
Cc1cc(=O)oc2c(C)c3oc4c(c3cc12)CN(C)CC4			BACTEC	H37Rv	MIC bound	>12.5 µg/mL
C[C@@]12CCC[C@@]3(C)C(=O)OCCCOC(=O)CC(=O)OCCCOC(=O)[C@@]4(C)CCC[C@]5(C)C6CC[C@]7(C)C[C@@]6(CCC54)C[C@@H]7OC(=O)CCCCCCCC(=O)O[C@@H]4C[C@@]5(CCC13)C[C@]4(C)CCC52			BACTEC / radiometric	H37Rv	MIC99	1 µg/mL
C=C(NC[C@H]1CN(c2ccc(N3C4CCC3CSC4)c(F)c2)C(=O)O1)C1CCC1			broth dilution / fluorescence	H37Rv	MIC	0.7 µg/mL
CCc1nc2ccccc2n1CCCCSc1nnc(-c2ccc(Cl)cc2)o1		QcrB M342T	turbidity / fluorescence	H37Rv	MIC90	47 µM
Cc1cn2c(C(=O)NCc3ccc(N4CCN(c5ccc(C(F)(F)F)cn5)CC4)c(F)c3)c(C)nc2s1			resazurin	H37Rv	MIC90	<2 µM
CCCN(CCC)c1ccc(N=Nc2ccccc2C(=O)O)cc1			resazurin	H37Rv	MIC	3.13 µg/mL
Cc1ccc2nc(C)c(C(=O)NCc3cccc(S(F)(F)(F)(F)F)c3)n2c1			resazurin	H37Rv	MIC90	<2 µM
CCOC(=O)c1c(-c2ccc(Cl)cc2)cc2c3ccccc3ccn12			agar	H37Rv	MIC	3.9 µM
CCc1nc2ccc(Cl)cn2c1C(=O)NCc1ccc(N2CCS(=O)(=O)CC2)cc1			resazurin	H37Rv	MIC90	2–10 µM
c1ccc(P(c2ccccc2)c2ccccc2)cc1			resazurin	H37Rv	MIC90	>250 µg/mL
Cc1ccc(-n2c3nc(=O)n(C)c(=O)c-3nc3ccccc32)cc1	12.5 µg/mL		BACTEC	H37Rv	inhibition	30%
CCOC(=O)c1c(-c2ccc(C(C)C)cc2)cc2c3ccccc3ccn12			agar	H37Rv	MIC	7.8 µM
CCc1nc2ccccc2n1CCCCN1CCOCC1			turbidity / fluorescence	H37Rv	MIC99	>20 µM
CCc1nc2ccc(Cl)cn2c1C(=O)NCc1ccc2c(c1)CCO2			resazurin	H37Rv	MIC90	<2 µM
C=C1C(=O)[C@@]23[C@@H]4C[C@H]5C(=CCC5(C)C)[C@@](C)(O4)[C@@H]2CC[C@@H]1[C@H]3O			resazurin / absorbance	H37Ra	MIC	25–50 µg/mL
CCOc1ccc(-n2c(=O)c(N=Nc3ccccc3Cl)c(O)n(-c3ccc(Br)cc3)c2=S)cc1	12.5 µg/mL		BACTEC	H37Rv	inhibition	99%
CCc1nc2ccc(C)cc2n1CCCCNc1ccc(OC)cc1			turbidity / fluorescence	H37Rv	MIC99	0.65 µM
CC1=CC(=O)c2c(O)cccc2C1=O			broth dilution	H37Ra ATCC 25177	MIC	8 µg/mL
O=C(N/N=C(\COc1ccc(Cl)cc1)N=Cc1ccncc1)c1ccncc1				H37Rv(ATCC25584)	MIC	>100 µg/mL
CCc1nc2ccc(Cl)cn2c1C(=O)NCc1ccc(N2CCCN(c3ccc(S(F)(F)(F)(F)F)cc3)CC2)c(F)c1			resazurin	H37Rv	MIC90	<2 µM
C=C1C[C@@H](OC(=O)CSCCN(CC)CC)C2CCC[C@]3(CCC(=O)C23)C[C@H]1O			resazurin	mc(^2)7000	MIC	12–25 µg/mL
Cc1nccn1CCCCOc1ccc(Cl)cc1			turbidity / fluorescence	H37Rv	MIC99	>20 µM
CCc1c2c(nc3ccc(OCc4cccc(OC)c4)cc13)-c1cc3c(c(=O)n1C2)COC(=O)C3(O)CC		Extensively drug-resistant	resazurin	XDR	MIC	12.2 µM
CCc1nc2ccccc2n1CCCCSc1ncc(C)s1			turbidity / fluorescence	H37Rv	MIC99	>20 µM
CC(C)(C)c1ncc(CCCN=C(N)N)[nH]c1=O				PZA-R	MIC	1.6 µg/mL
Nc1cc(O)c(C(=O)O)cc1F		Ciprofloxacin-resistant	resazurin	H37Rv	MIC90	6.25 µg/mL
Cc1ccn2c(C(=O)NCc3cccc(S(F)(F)(F)(F)F)c3)c(C)nc2c1			resazurin	H37Rv	MIC90	<2 µM
CN(C)C1C(=O)C(C(=O)NCNC(CO)(CO)CO)=C(O)C2(O)C(=O)C3=C(O)c4c(O)cccc4C(C)(O)C3CC12	12.5 µg/mL		BACTEC	H37Rv	inhibition	1%
CC(=O)c1cc([N+](=O)[O-])c2nc(C(C)C)ccc2c1C(C)C				Isoniazid-resistant	MIC	12.5 µg/mL
Cc1ccc(Nc2nc(NS(=O)(=O)c3cc(C)c(Cl)cc3S)n[nH]2)cc1			BACTEC	H37Rv	MIC bound	>12.5 µg/mL
C=C1C(=O)[C@@]23[C@@H]4CC5=C(C(=O)CC5(C)C)[C@@](C)(O4)[C@@H]2CC[C@@H]1[C@H]3O			resazurin / absorbance	H37Ra	MIC	25–50 µg/mL
CCOC(=O)Nc1nc2ccccc2[nH]1	0.5 µM		BACTEC	H37Rv	inhibition	0%
COc1cc(OC)c(-c2c([N+](=O)[O-])c3ccccn3c2C#N)c(OC)c1			agar	H37Rv	MIC	>85 µM
Cc1cc2nc3c(=O)[nH]c(=O)nc-3n(C/C=N/NC(N)=S)c2cc1C			BACTEC	H37Rv	MIC bound	>12.5 µg/mL
CC(=O)c1cc([N+](=O)[O-])c2nc(C3CCCC3)ccc2c1C1CCCC1				H37Rv	MIC	>6.25 µg/mL

For reference, 8 entries again:

smiles | dose | changes | method | strain | read-out | value
C=C(NC[C@H]1CN(c2ccc(N3C4CCC3CSC4)c(F)c2)C(=O)O1)C1CCC1 |  |  | broth dilution / fluorescence | H37Rv | MIC | 0.7 µg/mL
Cc1ccc(-n2c3nc(=O)n(C)c(=O)c-3nc3ccccc32)cc1 | 12.5 µg/mL |  | BACTEC | H37Rv | inhibition | 30%
C=C(NC[C@H]1CN(c2ccc(N3C4CCC3CSC4)c(F)c2)C(=O)O1)C1CC1 |  |  | broth dilution / fluorescence | H37Rv | MIC | 1 µg/mL
Cc1ccc(Nc2nc(NS(=O)(=O)c3cc(C)c(Cl)cc3S)n[nH]2)cc1 |  |  | BACTEC | H37Rv | MIC bound | >12.5 µg/mL
C=C1C(=O)[C@]23C[C@H]1C[C@H](OC(C)=O)[C@H]2[C@]1(C)CCCC(C)(C)[C@H]1C[C@H]3O |  |  | resazurin / absorbance | H37Rv | MIC | 25–50 µg/mL
CCc1nc2ccc(Cl)cn2c1C(=O)NCc1ccc2c(c1)CCO2 |  |  | resazurin | H37Rv | MIC90 | <2 µM
Cc1ccn2c(C(=O)NCc3ccc(N4CCOCC4)c(F)c3)c(C)nc2c1 |  |  | resazurin | H37Rv | MIC90 | <2 µM
C=C[C@]1(C)C[C@@H](OC(=O)CO)[C@]2(C)C(C)CC[C@]3(CCC(=O)C32)[C@@H](C)[C@@H]1O |  |  | resazurin | mc(^2)7000 | MIC | 25–50 µg/mL

MIC bound comes from a single tested concentration. Blank or dashed fields: not listed here. Rows are shuffled and stem from different studies. a–b is a range or a potency band. A number after MIC or MFC names an inhibition level or a share of isolates.